PSTVd loop 6 mutant pool in Nicotiana benthamiana

From the data files of Wu et al. 2024, doi:10.1371/journal.ppat.1012142.

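A pool of all variants was put on leaves of three Nicotiana benthamiana plants. Progeny were sequenced from the inoculated region (day 5), the margin of the inoculated leaf (day 10) and systemic leaves (day 12).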

PSTVd intermediate strain, loop 6: wild type UGACCGCGAG, pool pattern UNNNCGNNNG; upper and lower strand joined, each 5' to 3', the first 5 letters being the upper strand, closing pairs included.

Values are reads per thousand in the sample; higher means more abundant, 0 means not found. Each value is the mean of three plants. "Pool" is the share in the plasmid pool used as inoculum, on the same scale. The inoculated region was read from the minus strand, the other sites from the plus strand. IR is the inoculated region, LM the leaf margin, Sys the systemic leaves. Samples held 36,220 to 57,551 reads, so the smallest values rest on one or two reads. Sequences that differ at fixed positions probably stem from PCR or sequencing errors, and defective variants can be carried along by functional ones. Wild type was 20.7 per thousand in the pool and the most common sequence in every sample (inoculated region 195, 198, 203; leaf margin 629, 591, 734; systemic leaves 942, 870, 868).

* UGCGCGAUAG (pool 0.301) = IR 0.0832; LM 0.0928; Sys 0
* CUCGCGUUUG (pool 0.0131) = IR 0; LM 0; Sys 0
* UGUACGCAAG (pool 0.0915) = IR 0.774; LM 0.0504; Sys 0
* UUAUCGCUAG (pool 0.144) = IR 0.119; LM 0.00773; Sys 0
* UUUCCGCUAG (pool 0.144) = IR 0.113; LM 0.0309; Sys 0
* UUUUCGGUAG (pool 0.170) = IR 0.0473; LM 0; Sys 0
* UACUCGUCGG (pool 0.183) = IR 0.0768; LM 0.00920; Sys 0
* UGUGCGAUGG (pool 0.275) = IR 0.0959; LM 0; Sys 0
* UAUACGCCGG (pool 0.157) = IR 0.0949; LM 0; Sys 0
* UAUACGGCUG (pool 0.248) = IR 0.617; LM 0.143; Sys 0.0460
* UAGGCGGGGA (pool 0.0131) = IR 0; LM 0; Sys 0
* UCUGCGAACG (pool 0.314) = IR 0.0537; LM 0.00773; Sys 0
* UCUCCGUAGG (pool 0.183) = IR 0.0833; LM 0; Sys 0
* UUCCCGAGUG (pool 0.144) = IR 0.0658; LM 0; Sys 0
* UGGUCGAGUG (pool 0.261) = IR 0.0960; LM 0.00773; Sys 0
* UCUGCGCGAG (pool 0.261) = IR 0.173; LM 0.0253; Sys 0.156
* UAGACGUACG (pool 0.209) = IR 0.0893; LM 0.00773; Sys 0
* UGUCCGGCCG (pool 0.183) = IR 0.126; LM 0.0169; Sys 0
* UCUUCUCGAG (pool 0.0131) = IR 0.00599; LM 0.00841; Sys 0
* UAUACGGAAG (pool 0.248) = IR 0.623; LM 0.101; Sys 0
* UCGCCGGAUG (pool 0.288) = IR 0.113; LM 0.0184; Sys 0
* UUCACGAAAG (pool 0.196) = IR 0.0478; LM 0.0155; Sys 0
* UUACCGCUCG (pool 0.261) = IR 0.150; LM 0; Sys 0
* UCCUCGCCGG (pool 0.170) = IR 0.0780; LM 0.00773; Sys 0
* UAGACGGAGG (pool 0.183) = IR 0.0710; LM 0; Sys 0
* UAGCCGGCGG (pool 0.209) = IR 0.0711; LM 0.0444; Sys 0
* UGUUCGACGG (pool 0.418) = IR 0.0773; LM 0; Sys 0
* UGGCCGGGCG (pool 0.131) = IR 0.133; LM 0; Sys 0
* UGGACGGGCG (pool 0.170) = IR 0.0717; LM 0.00773; Sys 0
* UACUCGAAAG (pool 0.131) = IR 0.114; LM 0; Sys 0
* UGCUCGCAAG (pool 0.118) = IR 0.162; LM 0.0247; Sys 0
* UAGUCGUGAG (pool 0.248) = IR 0.101; LM 0.00920; Sys 0.00684
* UUUUCGAAUG (pool 0.353) = IR 0.0766; LM 0; Sys 0
* UAGGCGGCUG (pool 0.196) = IR 0.0947; LM 0.0155; Sys 0
* UAGUCGGAGG (pool 0.209) = IR 0.0838; LM 0.00920; Sys 0
* UGUUCGUGAG (pool 0.301) = IR 0.112; LM 0; Sys 0
* UUCUCGUUAG (pool 0.418) = IR 0.138; LM 0; Sys 0
* UAUGCGGUGG (pool 0.170) = IR 0.107; LM 0; Sys 0
* UGUACGGACG (pool 0.196) = IR 0.0831; LM 0; Sys 0

The last 2 entries again:

* UAUGCGGUGG (pool 0.170): IR 0.107; LM 0; Sys 0
* UGUACGGACG (pool 0.196): IR 0.0831; LM 0; Sys 0